{"sequences": {"note": "By UniProt entry, the sequences of proteins in these tests, tags left out.", "UniProt P09874, whole entry, looked up": "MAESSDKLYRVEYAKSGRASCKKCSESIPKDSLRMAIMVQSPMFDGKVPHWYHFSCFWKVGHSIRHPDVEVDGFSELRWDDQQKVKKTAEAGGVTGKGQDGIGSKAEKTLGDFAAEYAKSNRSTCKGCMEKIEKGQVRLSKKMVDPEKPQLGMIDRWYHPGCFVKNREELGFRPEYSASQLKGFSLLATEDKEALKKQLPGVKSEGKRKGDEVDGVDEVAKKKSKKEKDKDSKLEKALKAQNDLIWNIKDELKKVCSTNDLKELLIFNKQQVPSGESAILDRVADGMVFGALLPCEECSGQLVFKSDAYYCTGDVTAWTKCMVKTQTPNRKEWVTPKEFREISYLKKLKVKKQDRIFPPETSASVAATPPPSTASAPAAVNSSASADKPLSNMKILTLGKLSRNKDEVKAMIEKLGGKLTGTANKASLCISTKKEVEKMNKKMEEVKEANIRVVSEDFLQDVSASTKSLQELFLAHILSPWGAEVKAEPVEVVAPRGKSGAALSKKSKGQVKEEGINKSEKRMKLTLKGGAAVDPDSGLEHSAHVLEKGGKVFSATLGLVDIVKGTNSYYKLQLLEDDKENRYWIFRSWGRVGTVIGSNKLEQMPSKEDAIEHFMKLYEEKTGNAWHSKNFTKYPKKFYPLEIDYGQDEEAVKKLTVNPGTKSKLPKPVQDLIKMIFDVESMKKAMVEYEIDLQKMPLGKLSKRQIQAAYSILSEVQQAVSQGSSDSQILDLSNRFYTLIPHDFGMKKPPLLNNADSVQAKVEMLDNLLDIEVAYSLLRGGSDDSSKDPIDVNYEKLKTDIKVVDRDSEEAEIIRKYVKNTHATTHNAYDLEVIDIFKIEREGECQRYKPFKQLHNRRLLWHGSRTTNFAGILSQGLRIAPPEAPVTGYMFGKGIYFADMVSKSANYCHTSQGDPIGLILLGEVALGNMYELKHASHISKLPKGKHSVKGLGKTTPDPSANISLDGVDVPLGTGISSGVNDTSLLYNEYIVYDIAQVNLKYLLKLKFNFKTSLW"}, "source": "paper PMC8394033", "about": "“Cytocidal Antitumor Effects against Human Ovarian Cancer Cells Induced by B-Lactam Steroid Alkylators with Targeted Activity against Poly (ADP-Ribose) Polymerase (PARP) Enzymes in a Cell-Free Assay” (Biomedicines, 2021)", "key": {"[1]": {"target": "PARP-HSA Enzyme (PARP1/2) (Homo sapiens, UniProt P09874)", "assay": "Universal PARP Colorimetric Assay Kit, cell-free PARP-1/2 activity assay", "conditions": "PARP 0.6 units/well"}, "UWB1.289 [2]": {"tested_on": "UWB1.289", "assay": "Sister chromatid exchanges (SCEs) assay, genotoxicity and PRI", "conditions": "UWB1.289, 3 μM"}, "[3]": {"tested_on": "PHA-stimulated PBMCs (T-lymphocytes) from healthy donors", "assay": "Sister chromatid exchanges (SCEs) assay, genotoxicity and PRI", "conditions": "3 μM"}, "UWB1.289 + BRCA1 [4]": {"tested_on": "UWB1.289 + BRCA1", "assay": "Sister chromatid exchanges (SCEs) assay, genotoxicity and PRI", "conditions": "UWB1.289 +BRCA1, 3 μM"}, "UWB1.289 [5]": {"tested_on": "UWB1.289", "assay": "MTT assay, cytostatic and cytotoxic effects"}, "SKOV-3": {"tested_on": "SKOV-3", "assay": "MTT assay, cytostatic and cytotoxic effects"}, "OVCAR-3": {"tested_on": "OVCAR-3", "assay": "MTT assay, cytostatic and cytotoxic effects"}, "UWB1.289 + BRCA1 [6]": {"tested_on": "UWB1.289 + BRCA1", "assay": "MTT assay, cytostatic and cytotoxic effects"}, "MRC-5": {"tested_on": "MRC-5", "assay": "MTT assay, selectivity on normal lung fibroblasts"}}}
{"smiles": "O=C(O)CCOc1ccc(N(CCCl)CCCl)cc1", "values": [{"measurement": "IC50 (50% inhibition of the PARP enzymatic activity)", "setting": "[1]", "value": "132.68 ± 22.15", "unit": "µM"}, {"measurement": "IC100 (PARP inhibition)", "setting": "[1]", "value": ">300", "unit": "µM"}, {"measurement": "PRI (Proliferation Rate Index)", "setting": "UWB1.289 [2]", "value": 2.22}, {"measurement": "SCE/Chromosome ± SEM", "setting": "UWB1.289 [2]", "value": "0.32 ± 0.02"}, {"measurement": "SCEs/Metaphase ± SEM", "setting": "UWB1.289 [2]", "value": "23.48 ± 1.58"}, {"measurement": "PRI (Proliferation Rate Index)", "setting": "[3]; Donor 1 PBMCs", "value": 2.74}, {"measurement": "SCE/Chromosome ± SEM", "setting": "[3]; Donor 1 PBMCs", "value": "0.18 ± 0.01"}, {"measurement": "SCEs/Metaphase ± SEM", "setting": "[3]; Donor 1 PBMCs", "value": "8.4 ± 0.56"}, {"measurement": "PRI (Proliferation Rate Index)", "setting": "[3]; Donor 2 PBMCs", "value": 2.78}, {"measurement": "SCE/Chromosome ± SEM", "setting": "[3]; Donor 2 PBMCs", "value": "0.18 ± 0.009"}, {"measurement": "SCEs/Metaphase ± SEM", "setting": "[3]; Donor 2 PBMCs", "value": "8.06 ± 0.43"}, {"measurement": "PRI (Proliferation Rate Index)", "setting": "[3]; Donor 3 PBMCs", "value": 2.51}, {"measurement": "SCE/Chromosome ± SEM", "setting": "[3]; Donor 3 PBMCs", "value": "0.19 ± 0.011"}, {"measurement": "SCEs/Metaphase ± SEM", "setting": "[3]; Donor 3 PBMCs", "value": "8.54 ± 0.51"}, {"measurement": "PRI (Proliferation Rate Index)", "setting": "[3]; Donor 4 PBMCs", "value": 2.73}, {"measurement": "SCE/Chromosome ± SEM", "setting": "[3]; Donor 4 PBMCs", "value": "0.16 ± 0.006"}, {"measurement": "SCEs/Metaphase ± SEM", "setting": "[3]; Donor 4 PBMCs", "value": "7.56 ± 0.31"}, {"measurement": "PRI (Proliferation Rate Index)", "setting": "[3]; Donor 5 PBMCs", "value": 2.60}, {"measurement": "SCE/Chromosome ± SEM", "setting": "[3]; Donor 5 PBMCs", "value": "0.2 ± 0.013"}, {"measurement": "SCEs/Metaphase ± SEM", "setting": "[3]; Donor 5 PBMCs", "value": "9.02 ± 0.6"}, {"measurement": "Mean PRI ± SD", "setting": "[3]; mean of 5 donors' PBMCs", "value": "2.672 ± 0.11"}, {"measurement": "Mean SCE/Chromosome ± SD", "setting": "[3]; mean of 5 donors' PBMCs", "value": "0.18 ± 0.011"}, {"measurement": "Mean SCEs/metaphase Mean ± SD", "setting": "[3]; mean of 5 donors' PBMCs", "value": "8.32 ± 0.55"}, {"measurement": "PRI (Proliferation Rate Index)", "setting": "UWB1.289 + BRCA1 [4]", "value": 2.11}, {"measurement": "SCE/Chromosome ± SEM", "setting": "UWB1.289 + BRCA1 [4]", "value": "0.22 ± 0.02"}, {"measurement": "SCEs/Metaphase ± SEM", "setting": "UWB1.289 + BRCA1 [4]", "value": "16.08 ± 1.26"}, {"measurement": "TGI ±SEM (100% cell growth inhibition, cytostatic)", "setting": "UWB1.289 [5]; UWB1.289, 48 h treatment", "value": ">100", "unit": "µM"}, {"measurement": "GI50", "setting": "UWB1.289 [5]; read-out: GI50 ±SEM (50% inhibition of cell growth, cytostatic), UWB1.289, 48 h treatment", "value": 64, "unit": "µM"}, {"measurement": "IC50", "setting": "UWB1.289 [5]; read-out: IC50 ±SEM (50% cytocidal effect, cytotoxic), UWB1.289, 48 h treatment", "value": "> 100", "unit": "µM"}, {"measurement": "TGI ±SEM (100% cell growth inhibition, cytostatic)", "setting": "SKOV-3; SKOV-3, 48 h treatment", "value": ">100", "unit": "µM"}, {"measurement": "GI50", "setting": "SKOV-3; read-out: GI50 ±SEM (50% inhibition of cell growth, cytostatic), SKOV-3, 48 h treatment", "value": 77, "unit": "µM"}, {"measurement": "IC50", "setting": "SKOV-3; read-out: IC50 ±SEM (50% cytocidal effect, cytotoxic), SKOV-3, 48 h treatment", "value": "> 100", "unit": "µM"}, {"measurement": "TGI ±SEM (100% cell growth inhibition, cytostatic)", "setting": "OVCAR-3; OVCAR-3, 48 h treatment", "value": ">100", "unit": "µM"}, {"measurement": "GI50", "setting": "OVCAR-3; read-out: GI50 ±SEM (50% inhibition of cell growth, cytostatic), OVCAR-3, 48 h treatment", "value": "> 100", "unit": "µM"}, {"measurement": "IC50", "setting": "OVCAR-3; read-out: IC50 ±SEM (50% cytocidal effect, cytotoxic), OVCAR-3, 48 h treatment", "value": "> 100", "unit": "µM"}, {"measurement": "TGI ±SEM (100% cell growth inhibition, cytostatic)", "setting": "UWB1.289 + BRCA1 [6]; UWB1.289 + BRCA1, 48 h treatment", "value": ">100", "unit": "µM"}, {"measurement": "GI50", "setting": "UWB1.289 + BRCA1 [6]; read-out: GI50 ±SEM (50% inhibition of cell growth, cytostatic), UWB1.289 + BRCA1, 48 h treatment", "value": "> 100", "unit": "µM"}, {"measurement": "IC50", "setting": "UWB1.289 + BRCA1 [6]; read-out: IC50 ±SEM (50% cytocidal effect, cytotoxic), UWB1.289 + BRCA1, 48 h treatment", "value": "> 100", "unit": "µM"}, {"measurement": "TGI ±SEM (100% cell growth inhibition, cytostatic)", "setting": "MRC-5; MRC-5 normal human lung fibroblasts, 48 h treatment", "value": ">100", "unit": "µM"}, {"measurement": "GI50", "setting": "MRC-5; read-out: GI50 ±SEM (50% inhibition of cell growth, cytostatic), MRC-5 normal human lung fibroblasts, 48 h treatment", "value": "> 100", "unit": "µM"}, {"measurement": "IC50", "setting": "MRC-5; read-out: IC50 ±SEM (50% cytocidal effect, cytotoxic), MRC-5 normal human lung fibroblasts, 48 h treatment", "value": "> 100", "unit": "µM"}]}
